Patent US20040076637A1, “HIV-derived HR1 peptides modified to form stable trimers, and their use in therapy to inhibit transmission of human immunodeficiency virus” (priority 2002, published 2004)

Legend:
[1] = Thermal stability (Tm) by CD signal at 222 nm; format: physicochemical; conditions: at 10 μM
Protocol: Helicity was assessed by circular dichroism (“CD”) as follows. Briefly, CD spectra were obtained using a spectrometer equipped with a thermoelectric temperature controller. The spectra was obtained at 25° C. with 0.5 nanometer (nm) steps from 200 to 260 nm, with a 1.5 nm bandwith, and a typical averaging time of 4 seconds/step. After the cell/buffer blank was subtracted, spectra were smoothed using a third-order least-squares polynomial fit with a conservative window size to give random residuals. Raw ellipticity values were converted to mean residue ellipticity using standard methods, and plotted was the wavelength (from 200 to 260 nm) versus [θ]×10^−3 (degrees cm^2/dmol). Percent helicity values were then calculated using standard methods. Assessment of thermal stability was performed by monitoring the change in CD signal at 222 nm as temperature was raised in 2° C. steps, with 1 minute equilibration times. The thermal stability for each sample (e.g., synthetic peptide) was represented by the transition temperature (Tm) determined by the derivative method.

[2] = Oligomerization state by sedimentation equilibrium (analytical ultracentrifuge); format: physicochemical; conditions: in solution, 4° C.
Protocol: Oligomerization state was assessed by using methods standard in the art for performing sedimentation equilibrium experiments and for analysis of the resultant data. In that regard, sedimentation equilibrium experiments were performed over a concentration range of synthetic peptide (1 μM to […]) as follows. Briefly, six-channel cells (12 mm optical path length) were used with an An-60 Ti rotor operated at 13,500 rpm, 18,000 rpm, 22,000 rpm, and 35,000 rpm) in an analytical ultracentrifuge at 4° C. The cell radii were scanned using 0.001 cm steps with 10 averages/scan at 3 different wavelengths (235 nm, 240 nm, 280 nm). Data obtained with solutions containing synthetic peptide was analyzed using a single species model to determine a weight-averaged molecular weight (MW). Diagnostic plots of MW/MW0 vs. rpm/rpm0 and MW vs. radial concentration were used to test for sample homogeneity. When systemic residuals or a MW higher than monomer molecular weight indicated the presence of self-association, associative models were investigated. The suitability of a model (goodness of fit) was judged by the trends observed in the residuals.

SMILES	Stability Tm [1]	Oligomerization [2]
CC[C@H](C)[C@H](NC(=O)[C@H](Cc1ccc(O)cc1)NC(=O)[C@H](CCCNC(=N)N)NC(=O)[C@H](CCC(=O)O)NC(=O)[C@H](CC(C)C)NC(=O)[C@H](C)NC(=O)[C@H](CC(C)C)NC(=O)[C@@H](NC(=O)[C@H](CCCNC(=N)N)NC(=O)[C@H](C)NC(=O)[C@H](CCC(N)=O)NC(=O)[C@H](CC(C)C)NC(=O)[C@H](CCC(N)=O)NC(=O)[C@H](CCCCN)NC(=O)[C@@H](NC(=O)CNC(=O)[C@H](Cc1c[nH]c2ccccc12)NC(=O)[C@@H](NC(=O)[C@H](CC(C)C)NC(=O)[C@H](CC(C)C)NC(=O)[C@H](CCC(N)=O)NC(=O)[C@@H](NC(=O)[C@H](CC(C)C)NC(=O)[C@H](Cc1c[nH]cn1)NC(=O)[C@H](CCC(N)=O)NC(=O)[C@@H](NC(=O)[C@H](C)NC(=O)[C@H](CCC(=O)O)NC(=O)[C@H](CC(C)C)NC(=O)[C@H](C)NC(=O)[C@H](CCCNC(=N)N)NC(=O)[C@H](CC(C)C)NC(=O)[C@@H](NC(=O)[C@H](CC(N)=O)NC(=O)[C@H](CC(N)=O)NC(=O)[C@H](CCC(N)=O)NC(=O)[C@H](CCC(N)=O)NC(=O)[C@H](CCC(N)=O)NC(=O)[C@@H](NC(=O)[C@H](CC(C)C)NC(=O)CNC(=O)[C@H](CO)NC(=O)[C@@H](NC(=O)[C@H](CC(C)C)NC(=O)[C@H](CCC(N)=O)NC(=O)[C@H](CCCNC(=N)N)NC(=O)[C@H](C)NC(=O)[C@H](CCC(N)=O)NC(C)=O)C(C)C)C(C)C)[C@@H](C)CC)[C@@H](C)O)C(C)C)C(C)C)C(C)C)C(C)C)C(=O)N[C@@H](CCCCN)C(N)=O [SEQ ID NO: 41]	Tm > 97 °C	–
CC[C@H](C)[C@H](NC(=O)CNC(=O)[C@H](Cc1c[nH]c2ccccc12)NC(=O)[C@@H](NC(=O)[C@@H](NC(=O)[C@H](CC(C)C)NC(=O)[C@H](CCC(N)=O)NC(=O)[C@H](CC(C)C)NC(=O)[C@H](CC(C)C)NC(=O)[C@H](Cc1c[nH]cn1)NC(=O)[C@H](CCC(N)=O)NC(=O)[C@H](CCC(N)=O)NC(=O)[C@H](C)NC(=O)[C@H](CCC(=O)O)NC(=O)[C@@H](NC(=O)[C@H](C)NC(=O)[C@H](CCCNC(=N)N)NC(=O)[C@H](CC(C)C)NC(=O)[C@H](CC(C)C)NC(=O)[C@H](CC(N)=O)NC(=O)[C@H](CC(N)=O)NC(=O)[C@H](CCC(N)=O)NC(=O)[C@H](CCC(N)=O)NC(=O)[C@H](CCC(N)=O)NC(C)=O)[C@@H](C)CC)[C@@H](C)O)C(C)C)C(=O)N[C@@H](CCCCN)C(=O)N[C@@H](CCC(N)=O)C(=O)N[C@@H](CC(C)C)C(=O)N[C@@H](CCC(N)=O)C(=O)N[C@@H](C)C(=O)N[C@@H](CCCNC(=N)N)C(=O)N[C@H](C(=O)N[C@@H](CC(C)C)C(=O)N[C@@H](C)C(=O)N[C@H](C(=O)N[C@@H](CCC(=O)O)C(=O)N[C@@H](CCCNC(=N)N)C(=O)N[C@@H](Cc1ccc(O)cc1)C(=O)N[C@@H](CC(C)C)C(=O)N[C@@H](CCCCN)C(=O)N[C@@H](CC(=O)O)C(=O)N[C@@H](CCC(N)=O)C(N)=O)C(C)C)[C@@H](C)CC [SEQ ID NO: 27, reference compound]	76 °C	Tetra-
CC[C@H](C)[C@H](NC(=O)[C@H](Cc1ccc(O)cc1)NC(=O)[C@H](CCCNC(=N)N)NC(=O)[C@H](CCC(=O)O)NC(=O)[C@H](CC(C)C)NC(=O)[C@H](C)NC(=O)[C@H](CC(C)C)NC(=O)[C@@H](NC(=O)[C@H](CCCNC(=N)N)NC(=O)[C@H](C)NC(=O)[C@H](CCC(N)=O)NC(=O)[C@H](CC(C)C)NC(=O)[C@H](CCC(N)=O)NC(=O)[C@H](CCCNC(=N)N)NC(=O)[C@@H](NC(=O)CNC(=O)[C@H](Cc1c[nH]c2ccccc12)NC(=O)[C@@H](NC(=O)[C@H](CC(C)C)NC(=O)[C@H](C)NC(=O)[C@H](CCC(N)=O)NC(=O)[C@@H](NC(=O)[C@H](C)NC(=O)[C@H](Cc1c[nH]cn1)NC(=O)[C@H](CCC(N)=O)NC(=O)[C@@H](NC(=O)[C@H](C)NC(=O)[C@H](CCC(=O)O)NC(=O)[C@H](CC(C)C)NC(=O)[C@H](C)NC(=O)[C@H](CCCNC(=N)N)NC(=O)[C@H](CC(C)C)NC(=O)[C@@H](NC(=O)[C@H](CC(N)=O)NC(=O)[C@H](CC(N)=O)NC(=O)[C@H](CCC(N)=O)NC(=O)[C@H](CCC(N)=O)NC(=O)[C@H](CCC(N)=O)NC(=O)[C@@H](NC(=O)[C@H](CC(C)C)NC(=O)CNC(=O)[C@H](CO)NC(=O)[C@@H](NC(=O)[C@H](CC(C)C)NC(=O)[C@H](CCC(N)=O)NC(=O)[C@H](CCCNC(=N)N)NC(=O)[C@H](C)NC(=O)[C@H](CCC(N)=O)NC(C)=O)C(C)C)C(C)C)[C@@H](C)CC)[C@@H](C)O)C(C)C)C(C)C)C(C)C)C(C)C)C(=O)N[C@@H](CCCCN)C(N)=O [SEQ ID NO: 37]	> 97 °C	–
CC[C@H](C)[C@H](NC(=O)CNC(=O)[C@H](Cc1c[nH]c2ccccc12)NC(=O)[C@@H](NC(=O)[C@@H](NC(=O)[C@H](C)NC(=O)[C@H](CCC(N)=O)NC(=O)[C@H](CC(C)C)NC(=O)[C@H](C)NC(=O)[C@H](Cc1c[nH]cn1)NC(=O)[C@H](CCC(N)=O)NC(=O)[C@H](CCC(N)=O)NC(=O)[C@H](C)NC(=O)[C@H](CCC(=O)O)NC(=O)[C@@H](NC(=O)[C@H](C)NC(=O)[C@H](CCCNC(=N)N)NC(=O)[C@H](CC(C)C)NC(=O)[C@H](CC(C)C)NC(=O)[C@H](CC(N)=O)NC(=O)[C@H](CC(N)=O)NC(=O)[C@H](CCC(N)=O)NC(=O)[C@H](CCC(N)=O)NC(=O)[C@H](CCC(N)=O)NC(=O)[C@@H](NC(=O)[C@@H](NC(=O)CNC(=O)[C@H](CO)NC(=O)[C@H](CC(C)C)NC(=O)[C@H](CC(C)C)NC(=O)[C@H](CCC(N)=O)NC(=O)[C@H](CCCNC(=N)N)NC(=O)[C@H](C)NC(=O)[C@H](CCC(N)=O)NC(C)=O)[C@@H](C)CC)C(C)C)[C@@H](C)CC)[C@@H](C)O)C(C)C)C(=O)N[C@@H](CCCCN)C(=O)N[C@@H](CCC(N)=O)C(=O)N[C@@H](CC(C)C)C(=O)N[C@@H](CCC(N)=O)C(=O)N[C@@H](C)C(=O)N[C@@H](CCCNC(=N)N)C(=O)N[C@H](C(=O)N[C@@H](CC(C)C)C(=O)N[C@@H](C)C(=O)N[C@H](C(=O)N[C@@H](CCC(=O)O)C(=O)N[C@@H](CCCNC(=N)N)C(=O)N[C@@H](Cc1ccc(O)cc1)C(=O)N[C@@H](CC(C)C)C(=O)N[C@@H](CCCCN)C(=O)N[C@@H](CC(=O)O)C(=O)N[C@@H](CCC(N)=O)C(N)=O)C(C)C)[C@@H](C)CC [SEQ ID NO: 34]	–	trimeric
